Compound potency records, mixed from different reports. Data source: NIAID ChemDB in PubChem.

Common to all: growth or infection tests; species: Poliovirus

Two numbers with a dash give a range or band.

structure | cells | read-out | strain or isolate | result
CC=NC(=N)c1nc(-c2ccc(OC)cc2)n(Cc2ccccc2)n1 | HeLa | EC50 | TYPE 1 | >10 µg/mL
OCCOCn1c(SCc2ccccn2)nc2ccccc21 | HEL | EC50 | TYPE 1 | >100 µg/mL
CCOC(=O)c1ccc(OCCCCOc2ccc(-c3snc(SC)c3C#N)cc2)cc1 | HEP-2/L-929/VERO | EC50 | TYPE 1 | >2 µM
Cc1ccc(S(=O)(=O)O)cc1.N/C(=N/N=C/c1ccc2c(c1)OCO2)NO | VERO | EC50 | Brunhilde (type 1) | >50 µM
COc1cc(C(=O)Oc2c(-c3ccc(Cl)c(Cl)c3)oc3ccccc3c2=O)cc(OC)c1O | HeLa | EC50 | TYPE 2 | >1.56 µM
OCCOCn1c(CCc2ccccn2)nc2ccccc21 | HEL | EC50 | TYPE 1 | >100 µg/mL
N#Cc1csnc1-c1ccccc1 | HEP-2 | EC50 | Type 1/Brunhilde | >100 µM
C=C(N=CC)c1nc(-c2ccccc2)n(C2O[C@H](CO)[C@@H](O)[C@H](O)[C@H]2O)n1 | HeLa | EC50 | TYPE 1 | >200 µg/mL
Clc1ccc(C2=Cc3cc(Cl)ccc3OC2)cc1 | HEP-2 | EC50 | IB (TYPE 2) | >10 µM
CC=NC(=N)c1nc(-c2cccc(OC)c2)n(C/C=C/c2ccccc2)n1 | HeLa | EC50 | TYPE 1 | >10 µg/mL
CSc1nsc(-c2ccc(OCCCCOc3ccccc3)cc2)c1C#N | HEP-2/L-929/VERO | EC50 | TYPE 1 | 5 µM
CCOC(=O)C1=CN(COCCOC(C)=O)S(=O)(=O)N=C1N | HeLa | EC50 | TYPE 1 | >400 µg/mL
COc1cc(/C=C/C(=O)Oc2c(-c3ccc(Cl)cc3)oc3ccccc3c2=O)ccc1O | HeLa | EC50 | TYPE 2 | >6.25 µM
CC(=O)OCCOCN1C=C(C#N)C(N)=NS1(=O)=O | HeLa | EC50 | TYPE 1 | >400 µg/mL
N#Cc1c(-c2ccccc2)nsc1Cl | HEP-2 | EC50 | Type 1/Brunhilde | >20 µM
[N-]=[N+]=N[C@H]1[C@@H](F)[C@H](n2cnc3c(N)ncnc32)O[C@@H]1CO | HeLa | EC50 | TYPE 1 | >200 µg/mL
Cc1ccc(C(=O)CCCCCCOc2ccc(C3=NCCO3)cc2Cl)s1 | VERO | EC50 | TYPE 2 | 6.23 µM
CC(=O)c1ccc2c(c1)S(=O)(=O)c1ccccc1O2 | BSC-1 | EC50 | TYPE 3 | >10 µg/mL
Clc1ccc(C2CCc3ccccc3O2)c(Cl)c1 | HEP-2 | EC50 | IA (TYPE 2) | >10 µM
Cc1ccc(C(=O)CCCCCCOc2ccc(C3=NCCO3)cc2)s1 | VERO | EC50 | TYPE 2 | 5.39 µM
CC=NC(=N)c1nc(-c2ccccc2)n(COCCO)n1 | HeLa | EC50 | TYPE 1 | >200 µg/mL
CCC(=O)c1ccc2c(c1)Sc1ccccc1O2 | BSC-1 | EC50 | TYPE 3 | <0.4 µg/mL
CSc1nsc(-c2ccc(OCCOc3ccc(C#N)cc3)cc2)c1C#N | HEP-2/L-929/VERO | EC50 | TYPE 1 | >2 µM
Cc1cc(CCCCCOc2ccc(-c3ncon3)cc2)on1 |  | MIC | TYPE 2 | 0.05 µg/mL
Clc1ccc(C2COc3ccc(Cl)cc3C2)cc1 | HEP-2 | EC50 | SABIN (TYPE 2) | >10 µM
COc1cc(/C=N/N=C(/N)NO)cc(OC)c1OC.Cc1ccc(S(=O)(=O)O)cc1 | VERO | EC50 | Brunhilde (type 1) | >50 µM
CC=NC(=N)c1nc(-c2ccc(C)cc2)n(Cc2ccccc2)n1 | HeLa | EC50 | TYPE 1 | >10 µg/mL
CCOC(=O)c1ccc(OCCC2CCN(c3ccc(C)nn3)CC2)cc1 | HEP-2/L-929/VERO | EC50 | TYPE 1 | 0.23 µM
Cc1ccn2c(C(SCCc3ccccc3)SCCc3ccccc3)cnc2c1 | HeLa | EC50 | TYPE 1 | >1000 µM
Cc1ccc(C(=O)CCCCCCOc2ccc(C3=NC(C)CO3)cc2)s1 | VERO | EC50 | TYPE 3 | 1.81 µM
COc1ccc(-c2snc(SC)c2C#N)cc1 | HEP-2 | EC50 | Type 1/Brunhilde | 0.6 µM
Nc1ncnc2c([C@@H]3O[C@H](CSCCC(N)C(=O)O)C[C@H]3O)[nH]nc12 | HeLa | EC50 | TYPE 1 | >20 µg/mL
CSc1nsc(-c2ccc(OCCOc3ccccc3)cc2)c1C#N | HEP-2/L-929/VERO | EC50 | TYPE 1 | 5 µM
CC(=O)Nc1nc2c(CC(O)CO)ncn2c(=O)[nH]1 | HeLa | EC50 | TYPE 1 | >200 µg/mL
Cc1cccn2c(C3OCCS3)cnc12 | HeLa | EC50 | TYPE 1 | >1000 µM
CCC1COC(c2ccc(OCCCCC(=O)c3ccc(C)s3)cc2)=N1 | VERO | EC50 | TYPE 3 | >26.95 µM
C=C(N=CC)c1nc(-c2ccccc2)n([C@@H]2O[C@H](CO)[C@@H](O)[C@H]2O)n1 | HeLa | EC50 | TYPE 1 | >200 µg/mL
CSc1nsc(-c2ccccc2)c1C#N | HEP-2 | EC50 | Type 1/Brunhilde | 0.045 µM
Nc1nccc2c1ncn2[C@@H]1C[C@H](CO)[C@@H](O)[C@H]1O |  | MIC | TYPE 1 | >400 µg/mL
Cn1ccnc1SCc1cccc(CSc2nc3ccccc3s2)n1 |  | MIC |  | 0.26 µM
CC(=O)c1ccc(Oc2ccccc2)cc1 | BSC-1 | EC50 | TYPE 3 | 0.4–2 µg/mL
Cc1ccn2c(C3SCCS3)cnc2c1 | HeLa | EC50 | TYPE 1 | >1000 µM
C=CCc1nc(C)n2c(=O)[nH]c(=S)[nH]c12 | HeLa | EC50 | TYPE 1 | >200 µg/mL
OCCOCn1c(SCc2ccccn2)nc2cc(Cl)c(Cl)cc21 | HEL | EC50 | TYPE 1 | >50 µg/mL
CC(O)c1ccc2c(c1)Sc1ccccc1O2 | BSC-1 | EC50 | TYPE 3 | <0.4 µg/mL
Nc1nccc2c1ncn2[C@@H]1C=C(CO)[C@@H](O)[C@H]1O |  | MIC | TYPE 1 | >400 µg/mL
NC1=CC(N)=NS(=O)(=O)N1COCCO | HeLa | EC50 | TYPE 1 | >400 µg/mL
O=c1c(O)c(-c2ccc(Cl)cc2)oc2ccccc12 | HeLa | EC50 | TYPE 2 | >6.25 µM
Cn1cc(CCCCOc2ccc(C(=O)O)cc2)cc1C=O | VERO | EC50 | Type 1/Sabin strain | >380 µM
CSc1nsc(-c2ccc(C(F)(F)F)cc2)c1C#N | HEP-2 | EC50 | Type 1/Brunhilde | 1 µM
CC(=O)c1c(-c2ccc(Cl)cc2)oc2ccccc2c1=O | HeLa | EC50 | TYPE 2 | >25 µM
C=C(N=CC)c1nc(-c2ccc(OC)cc2)n([C@@H]2O[C@H](CO)[C@@H](O)[C@H]2O)n1 | HeLa | EC50 | TYPE 1 | >400 µg/mL
O=C(/C=C/c1ccc(O)c(O)c1)Oc1c(-c2ccc(Cl)c(Cl)c2)oc2ccccc2c1=O | HeLa | EC50 | TYPE 2 | >6.25 µM
Cc1ccc(C(=O)CCCCOc2ccc(C3=NCC(C)O3)cc2Cl)s1 | VERO | EC50 | TYPE 3 | 1.48 µM
N#Cc1c(-c2ccccc2)s[nH]c1=S | HEP-2 | EC50 | Type 1/Brunhilde | 0.25 µM
CC(=O)OCCOCN1C=CC(=O)N(COCCOC(C)=O)S1(=O)=O | HeLa | EC50 | TYPE 1 | >400 µg/mL
Cc1ccn2c(C3OCCS3)cnc2c1 | HeLa | EC50 | TYPE 1 | >1000 µM
C=CCc1nc(C)n2c(=O)[nH]cnc12 | HeLa | EC50 | TYPE 1 | >400 µg/mL
OC[C@H]1O[C@@H](n2c(SCc3ccccn3)nc3ccccc32)[C@H](O)[C@@H]1O | HEL | EC50 | TYPE 1 | >100 µg/mL
Clc1ccc2c(c1)C=C(c1ccccc1)CO2 | HEP-2 | EC50 | SABIN (TYPE 2) | <10 µM
CC=NC(=N)c1nc(-c2cccc(OC)c2)n(COCCO)n1 | HeLa | EC50 | TYPE 1 | >10 µg/mL
Nc1nccc2c1ncn2[C@@H]1CC[C@@H](O)[C@H]1O |  | MIC | TYPE 1 | >200 µg/mL
CSc1nsc(-c2cccc(Cl)c2)c1C#N | HEP-2 | EC50 | Type 1/Brunhilde | 0.2 µM
CCOC(=O)c1ccc(OCCCCC(=O)c2ccc(C)s2)cc1 | VERO | EC50 | TYPE 1 | >26.72 µM
CSc1nsc(-c2ccc(OCCCOc3ccc([N+](=O)[O-])cc3)cc2)c1C#N | HEP-2/L-929/VERO | EC50 | TYPE 1 | >0.5 µM
COc1cc(/C=C/C(=O)Oc2c(-c3ccc(Cl)c(Cl)c3)oc3ccccc3c2=O)ccc1OC(C)=O | HeLa | EC50 | TYPE 2 | >0.39 µM
Clc1ccc2c(c1)CC(c1ccccc1)CO2 | HEP-2 | EC50 | TYPE 2 | >10 µM
CC(=O)Nc1nc2c(CC(O)CO)nc(C)n2c(=O)[nH]1 | HeLa | EC50 | TYPE 1 | >400 µg/mL
CC(O)c1ccc2c(c1)Sc1ccccc1S2 | BSC-1 | EC50 | TYPE 3 | 2–10 µg/mL
CSc1nsc(-c2ccccn2)c1C#N | HEP-2 | EC50 | Type 1/Brunhilde | 0.1 µM
CSc1nsc(-c2ccc(OCCCCOc3ccc(C#N)cc3)cc2)c1C#N | HEP-2/L-929/VERO | EC50 | TYPE 1 | >2 µM
C/C(O)=C1\C(=N)N(COCCO)S(=O)(=O)N=C1N | HeLa | EC50 | TYPE 1 | >400 µg/mL
Nc1ncnc2c1ncn2[C@@H]1C=C[C@@H](O)[C@H]1O |  | MIC | TYPE 1 | >400 µg/mL
Cn1cc(CCCCOc2ccc(C3=NCCO3)cc2)cc1C=O | VERO | EC50 | Type 1/Sabin strain | >280 µM
CCOC(=O)c1ccc(OCCCOc2ccc(-c3snc(SC)c3C#N)cc2)cc1 | HEP-2/L-929/VERO | EC50 | TYPE 1 | >2 µM

Repeating the first 10 entries:

structure	cells	read-out	strain or isolate	result
CC=NC(=N)c1nc(-c2ccc(OC)cc2)n(Cc2ccccc2)n1	HeLa	EC50	TYPE 1	>10 µg/mL
OCCOCn1c(SCc2ccccn2)nc2ccccc21	HEL	EC50	TYPE 1	>100 µg/mL
CCOC(=O)c1ccc(OCCCCOc2ccc(-c3snc(SC)c3C#N)cc2)cc1	HEP-2/L-929/VERO	EC50	TYPE 1	>2 µM
Cc1ccc(S(=O)(=O)O)cc1.N/C(=N/N=C/c1ccc2c(c1)OCO2)NO	VERO	EC50	Brunhilde (type 1)	>50 µM
COc1cc(C(=O)Oc2c(-c3ccc(Cl)c(Cl)c3)oc3ccccc3c2=O)cc(OC)c1O	HeLa	EC50	TYPE 2	>1.56 µM
OCCOCn1c(CCc2ccccn2)nc2ccccc21	HEL	EC50	TYPE 1	>100 µg/mL
N#Cc1csnc1-c1ccccc1	HEP-2	EC50	Type 1/Brunhilde	>100 µM
C=C(N=CC)c1nc(-c2ccccc2)n(C2O[C@H](CO)[C@@H](O)[C@H](O)[C@H]2O)n1	HeLa	EC50	TYPE 1	>200 µg/mL
Clc1ccc(C2=Cc3cc(Cl)ccc3OC2)cc1	HEP-2	EC50	IB (TYPE 2)	>10 µM
CC=NC(=N)c1nc(-c2cccc(OC)c2)n(C/C=C/c2ccccc2)n1	HeLa	EC50	TYPE 1	>10 µg/mL

Blank or dashed fields: not listed here. Conditions beyond the fields shown may differ between rows. ECn: concentration that inhibits the pathogen or its effect by n%.